Laboratory results: PMC4998957 (Nature, 2016)

Biological target: CAHexamer (disulfide-stabilised HIV-1 capsid hexamer) (Human immunodeficiency virus type 1 group M subtype B, UniProt P12493, A146C/E177C/M317A/W316A)
Format: binding
Conditions: read-out: affinity (Kd) for CAHexamer; pH 7.2

“BODIPY-labelled GTP-γ-S [reference compound]” showed a Kd of 14 nM.
